Measured values from several laboratories, pooled; numbers as filed in NIAID ChemDB.

Shared fields: growth or infection tests; agent: Mycobacterium tuberculosis

MIC50, MIC90 and the like: level of inhibition, or share of isolates inhibited. ECn is the concentration giving n% inhibition of infection, replication or growth. Inhibition is in % at the dose shown (toxicity tests: loss of growth or viability). Lines come from different laboratories, so protocols vary. MIC bound: limit read from a one-dose screen. An empty or dashed field is not shown.

SMILES,strain,method,cell line,tested at,setting,changes,endpoint,result
CN1CCN(c2n[nH]c(=O)c3c2nnn3C2CCCCC2)CC1,H37Rv,resazurin,,6.25 µg/mL,,,inhibition,25%
COc1cccc2c1cc1c3c(cc4c(c32)OCO4)C(=O)N1,SIN452,resazurin,,,,,MIC,12.5 µg/mL
CCOC(=O)c1c(C)[nH]c(C(=O)NN)c1C,H37Rv,BACTEC,,,,,EC50,>6.25 µg/mL
CC(=O)c1c(-c2ccc([N+](=O)[O-])o2)noc1C,,,,,,,MIC,30 µg/mL
CO[C@H]1/C=C/O[C@@]2(C)Oc3c(C)c(O)c4c(=O)c(c5oc6cc(N7CCN(CC(C)C)CC7)cc(=O)c6nc5c4c3=C2O)NC(=O)/C(C)=C\C=C\[C@H](C)[C@H](O)[C@@H](C)[C@@H](O)[C@@H](C)[C@H](OC(C)=O)[C@@H]1C,9 (rifampin-resistant),,,,,,MIC,0.025 µg/mL
CCN1CCc2c(sc(NC(=O)c3c(F)c(F)c(F)c(F)c3F)c2C(N)=O)C1,ATCC 35822 INH-R2 isoniazid-resistant,turbidity,,,,,EC50,3.7 µM
C=CCC1OC(=O)CCNC(=O)C(C)N(C)C(=O)C(C(C)C)N(C)C(=O)C(C(C)CC)NC(=O)C2CCCN2C1=O,H37Rv,BACTEC,,,,,MIC bound,>12.5 µg/mL
CCN1CCc2c(sc(N)c2C(=O)Nc2ccc(C)cc2)C1,H37Rv,resazurin,,,,,MIC,>100 µg/mL
O=C(Cc1nn(Cc2ccc(Br)cc2F)c(=O)c2ccccc12)NN=C(c1ccccc1)c1ccccc1,Multidrug-resistant (MDR),,,,,,MIC,0.72 µM
Cc1cc(C)c(C(=O)N/N=C/c2ccc([N+](=O)[O-])o2)[nH]1,H37Rv,BACTEC,,6.25 µg/mL,,,inhibition,26%
CCOC(=O)Nc1cc(N(C)/N=C/c2ccccc2)c([N+](=O)[O-])c(Cl)n1,H37Rv,,,,,,EC50,>12.5 µg/mL
CSC(=S)N/N=C/C(C)=N/N=C(N)N,H37Rv,BACTEC,,,,,MIC bound,≤128 µg/mL
O=c1oc2ccc(F)cc2c(=S)n1-c1cccc(Cl)c1,My 331/88,,,,21 d,,MIC,2 µM
CC(=O)C1CC(c2ccc([N+](=O)[O-])o2)=NO1,,,,,,,MIC,3 µg/mL
COC(=O)c1nc(NN)[nH]c(=O)c1CCCCCc1c(C(=O)OC)[nH]c(NN)cc1=O,H37Rv,BACTEC,,12.5 µg/mL,,,inhibition,0%
NNC(=O)c1cc(C2C3CC4CC(C3)CC2C4)nc2ccccc12,H37Ra,BACTEC,,,,,MIC,>6.25 µg/mL
CO[C@H]1/C=C/O[C@@]2(C)Oc3c(C)c(O)c4c(=O)c(c5oc6cc(N7CCN(C(C)C)CC7)cc(=O)c6nc5c4c3=C2O)NC(=O)/C(C)=C\C=C\[C@H](C)[C@H](O)[C@@H](C)[C@@H](O)[C@@H](C)[C@H](OC(C)=O)[C@@H]1C,3125 (rifampin-sensitive),,,,,,MBC,0.05 µg/mL
CO/N=C1\CN(c2nc3c(cc2F)c(=O)c(C(=O)O)cn3C2CC2)CC1CN,250 isolates,,,,,,MIC50,4 µg/mL
N#Cc1c(NC(=O)c2c(F)c(F)c(F)c(F)c2F)sc2c1CCOC2,H37Rv,turbidity,,,,katG Y155 truncation mutant,MIC,16 µM
CO[C@H]1/C=C/O[C@@]2(C)Oc3c(C)c(O)c4c(O)c(c(/C=N/N5CCN(C)CC5)c(O)c4c3C2=O)NC(=O)/C(C)=C\C=C\[C@H](C)[C@H](O)[C@@H](C)[C@@H](O)[C@@H](C)[C@H](OC(C)=O)[C@@H]1C,12119,broth dilution,,,,Ofloxacin-resistant,MIC80,0.04 µM
Cc1cc2oc(=O)c(C(=O)/C=C/c3ccc(C(F)(F)F)cc3)c(O)c2cc1C,INHR-MTB,agar,,,,Isoniazid-resistant,MIC90,>6.25 µg/mL
CC1(C)CC(N=c2cc3n(-c4ccc(Cl)cc4Cl)c4ccccc4nc-3cc2Nc2ccc(Cl)cc2Cl)CC(C)(C)N1,TBRP274 (INH SM-resistant),,,,,,MIC,0.03 µg/mL
COc1ccc(NC(=O)c2cc(C3C4CC5CC(C4)CC3C5)c3ccccc3n2)cc1,H37Ra,BACTEC,,,,,MIC,>6.25 µg/mL
CCOC(=O)c1c(C)c(-c2ccccc2)n(CC(=O)N/N=C/c2ccc[nH]2)c1C,H37Rv,BACTEC,,6.25 µg/mL,,,inhibition,8%
OC[C@H]1O[C@@H](n2cnc3c2nnn2ccnc32)[C@H](O)[C@@H]1O,H37Rv,BACTEC,,,,,MIC bound,>12.5 µg/mL
O=C(COc1ccccc1)N/N=C1\CCOc2ccccc21,H37Rv,,,,,,EC50,~40 µg/mL
NC(=O)[C@H](O)[C@@H](O)[C@H](O)[C@H](O)CO,H37Rv,resazurin,,,,,MIC bound,>6.25 µg/mL
Cc1c[nH]c(C)c1C(=O)NN,H37Rv,BACTEC,,6.25 µg/mL,,,inhibition,0%
CCN1CCc2c(sc(NC(=O)c3c(F)c(F)c(F)c(F)c3F)c2C#N)C1,,low oxygen,,,,,EC90,27 µM
O=c1oc2ccccc2c(O)c1C1=NN(c2ccccc2)C(c2ccc(O)cc2O)C1,H37Rv,agar,,,,,MIC90,>6.25 µg/mL
COc1nc2ccc(Br)cc2cc1[C@@H](c1ccccc1)[C@@](O)(CCN(C)C)c1cccc2ccccc12,17003,broth dilution,,,,Ethambutol-resistant,MIC80,<2 µM
Cc1ccc(OC/C(N)=N\NC(=O)c2ccncc2)cc1,16 isolates,,,,,,MIC50,3.12 µg/mL
COc1cc(OC)c2cc([N+](=O)[O-])c3ccc(=O)oc3c2c1,MTY147,resazurin,,,,,MIC,50 µg/mL
CCOC(=O)Nc1cc(Nc2ccc(Cl)cc2)c2nccnc2n1,H37Rv,,,,,,EC50,<12.5 µg/mL
CCOC(=O)c1c(NC(=O)c2c(F)c(F)c(F)c(F)c2F)sc2c1CCOC2,,low oxygen,,,,,EC90,1 µM
O=C1c2ccccc2C(=O)c2c(NCCOCCO)ccc(NCCOCCO)c21,H37Rv,BACTEC,,,,,MIC bound,>12.5 µg/mL
NNC(=O)c1cc(C2CCCC2)nc2ccccc12,H37Ra,BACTEC,,6.25 µg/mL,,,inhibition,2%
CCOC(=O)c1c(NC(=O)c2c(F)c(F)c(F)c(F)c2F)sc2c1CCNC2=O,,low oxygen,,,,,MIC,13 µM
CCOC(=O)c1c(C)c(-c2ccccc2)n(CC(=O)N/N=C/c2ccc(O)c(OCC)c2)c1C,H37Rv,BACTEC,,6.25 µg/mL,,,inhibition,0%
NNC(=O)Cc1cc(C2C3CC4CC(C3)CC2C4)nc2ccccc12,H37Ra,BACTEC,,,,,MIC,>6.25 µg/mL
Cl.NCCCCC(NC(=O)C(N)Cc1ccc(O)cc1)C(=O)NC(CCCCN)C(=O)NC(CCCCN)C(=O)ON1C(=O)CCC1=O,H37Rv,BACTEC,,12.5 µg/mL,,,inhibition,7%
CCOC(=O)c1c(C)c(-c2ccccc2)n(CC(=O)NN)c1C,H37Rv,BACTEC,,6.25 µg/mL,,,inhibition,13%
Cc1cc2oc(=O)c(C3=NN(c4ccccc4)C(c4ccccc4-c4ccccn4)C3)c(O)c2cc1C,INHR-MTB,agar,,,,Isoniazid-resistant,MIC90,>6.25 µg/mL
O=C(Cc1nn(Cc2ccc(Br)cc2F)c(=O)c2ccccc12)N/N=C(\c1ccccc1)c1ccc(Br)cc1,Multidrug-resistant (MDR),,,,,,MIC,1.26 µM
C[C@H]1COc2c(N3CCN(C)CC3)c(F)cc3c(=O)c(C(=O)O)cn1c23,206 isolates (susceptible),,,,,,Mean MIC,0.549 µg/mL
CC(NC(=O)C(=O)NN)c1ccccc1,H37Rv,BACTEC,,,,,MIC bound,>12.5 µg/mL
COc1ccc2oc(=S)n(-c3ccc(F)cc3)c(=S)c2c1,My 331/88,,,,21 d,,MIC,32 µM
CC1COc2c(N3CCN(C)CC3)c(F)cc3c(=O)c(C(=O)O)cn1c23,,broth dilution,,,,Bedaquiline-resistant A63P,MIC80,0.7 µM
CC(C)=CCOc1c2ccoc2cc2oc(=O)ccc12,H37Rv clinical isolate CRY4,resazurin,,,,Ethambutol-resistant,MIC100,100 µg/mL
Cc1ccccc1OC/C(N)=N\NC(=O)c1ccncc1,16 isolates,,,,,,MIC50,25 µg/mL
C[C@]12CC[C@H]3[C@@H](CC[C@]4(O)C[C@@H](O)CC[C@]34/C=N\O)[C@@]1(O)CC[C@@H]2C1=COC(=O)C1,H37Rv,resazurin,,6.25 µg/mL,,,inhibition,-15%
CCOC(=O)c1cc(-c2ccc(-c3ccccc3)cc2)n(CC(=O)NN)c1C,H37Rv,BACTEC,,,,,EC50,>6.25 µg/mL
COC1=CC(=O)C(CC=C(C)C)=CC1=O,H37Rv,BACTEC,,128 µg/mL,,,inhibition,100%
O=C(Nc1ccc([N+](=O)[O-])cc1)c1cc(C2C3CC4CC(C3)CC2C4)c2ccccc2n1,H37Ra,BACTEC,,,,,MIC,>6.25 µg/mL
CCN1CCc2c(sc(NC(=O)c3c(F)c(F)c(F)c(F)c3F)c2C(=O)NC)C1,H37Rv,turbidity,,,,katG Y155 truncation mutant,MIC,1.7 µM
N/C(COc1ccc(Cl)cc1)=N/NC(=O)c1ccncc1,ATCC 35822 (isoniazid-resistant),,,,,,MIC,100 µg/mL
Cc1ccc2oc(=O)n(-c3ccc(Cl)c(Cl)c3)c(=S)c2c1,My 331/88,,,,21 d,,MIC,0.5 µM
CCNC(=O)c1c(NC(=O)c2c(F)c(F)c(F)c(F)c2F)sc2c1CCN(CC)C2,H37Rv,turbidity,,,,katG Y155 truncation mutant,MIC,10 µM
CO[C@@]12[C@H](COC(N)=O)C3=C(C(=O)C(C)=C(NCCO)C3=O)N1C[C@@H]1N[C@@H]12,H37Rv,BACTEC,,12.5 µg/mL,,,inhibition,-10%
COc1cccc(C2CC(c3c(O)c4ccccc4oc3=O)=NN2)c1O,INHR-MTB,agar,,,,Isoniazid-resistant,MIC90,>6.25 µg/mL
CCOC(=O)Nc1cc2[nH]c(-c3cccc(C)c3)nc2c(N(CCc2ccccc2)Cc2ccccc2)n1,H37Rv,,,,,,EC50,>12.5 µg/mL
Cc1c(N=Nc2ccc(Br)cc2)c(-c2ccccc2)nn1C(=S)S,H37Rv,BACTEC,,,,,MIC,≥12.5 µg/mL
CCCCNC(=O)c1cc(C2C3CC4CC(C3)CC2C4)c2ccccc2n1,H37Ra,BACTEC,,6.25 µg/mL,,,inhibition,22%
C/C(=N\NC(=O)Cc1nn(Cc2ccc(Br)cc2F)c(=O)c2ccccc12)c1ccc(C)cc1,Multidrug-resistant (MDR),,,,,,MIC,0.79 µM
N#Cc1c(-c2ccc([N+](=O)[O-])o2)noc1N,,,,,,,MIC,3 µg/mL
Cc1cc(Nc2ccc(N(C)C)cc2)c2cc(N(C)C)ccc2n1,H37Rv,resazurin,,6.25 µg/mL,,,inhibition,98%
CCOC(=O)Nc1cc(NC(C)C(=O)c2ccccc2)c([N+](=O)[O-])cn1,H37Rv,,,12.5 µg/mL,,,inhibition,0%
O=Nc1ccc(NO)c2ccccc12,H37Rv,BACTEC,,12.5 µg/mL,,,inhibition,56%
Cc1cc(C)c(C(=O)NN)[nH]1,H37Rv,BACTEC,,6.25 µg/mL,,,inhibition,21%
NC(=O)c1cc(Cl)nc2nc(Cl)nc(N)c12,H37Rv,resazurin,,6.25 µg/mL,,,inhibition,-10%
O=C(Cc1nn(Cc2ccc(Br)cc2F)c(=O)c2ccccc12)N/N=C/c1ccc(F)cc1,Multidrug-resistant (MDR),,,,,,MIC,0.81 µM
Cc1cc2oc(=O)c(C(=O)/C=C/c3ccc(Cl)cc3Cl)c(O)c2cc1C,INHR-MTB,agar,,,,Isoniazid-resistant,MIC90,>6.25 µg/mL
CC1(C)CC(N=c2cc3n(-c4ccc(Cl)c(Cl)c4)c4ccccc4nc-3cc2Nc2ccc(Cl)c(Cl)c2)CC(C)(C)N1,H37Rv,,Macrophages,,inside macrophages,,EC50,<0.005 µg/mL
COc1ccc2oc(=O)n(-c3ccc(F)cc3)c(=S)c2c1,My 331/88,,,,14 d,,MIC,16 µM
CC(=O)OC1C2=C(C)C(=O)OC2=CC2=CCCC(C)C21C,H37Rv,BACTEC,,,,,MIC bound,>12.5 µg/mL
O=C(/C=C/c1ccc(O)cc1O)c1c(O)c2ccccc2oc1=O,H37Rv,agar,,,,,MIC90,>6.25 µg/mL
COc1ccccc1N=Nc1c(S(=O)(=O)O)cc2cc(NC(=O)Nc3ccc4c(O)c(N=Nc5c(N)ccc6cc(S(=O)(=O)O)ccc56)c(S(=O)(=O)O)cc4c3)ccc2c1O,H37Rv,BACTEC,,,,,MIC bound,>12.5 µg/mL
CC(C)OC(=O)c1cc[n+](CC(=O)c2ccccc2)cc1.[Br-],,resazurin,,,,XDR,MIC,2 µg/mL
Brc1ccc(-c2nc3sc(-c4ccc5c(c4)OCO5)nn3c2Br)cc1,H37Rv,BACTEC,,12.5 µg/mL,,,inhibition,0%
CCOC(=O)Nc1cc(Nc2ccc(Cl)cc2)c2ncc(C)nc2n1,H37Rv,,,,,,EC50,>12.5 µg/mL
S=c1cc(S)sc2c1c(=S)sc1nc3ccccn3c(=S)c12,H37Rv,BACTEC,,,,,MIC,≥12.5 µg/mL
O=[N+]([O-])c1ccc(C2=NOC(c3ccccc3)(N3CCCCC3)C2)o1,,,,,,,MIC,10 µg/mL